US20100086555A1 (INSTITUTE FOR RESEARCH IN BIOMEDICINE, published 2010)

B1: FE17 (antibody, V domains shown)
VH: QPQLQESGPGLVRPSETLSLTCTVSGDSVTRGGFYWGWIRQPPGKGLEWIGSIYYNYNIYHSPSLKSRVSLSVDTSKNQVSLKLASVTAADTAVYYCARHYPYYDLPTGFYSQFDFWGQGTPVTVSS
VL: QSVLTQPPSASGAPGQRVTLSCSGSGSNIGSNTVSWYQQLPGTAPKLLVFTNNQRPSGVPDRFSGSKSGTSASLAISGLQSEDEADYYCAAWDDSLNGQLFGGGTKLTVL
B2: FC41 (antibody, V domains shown)
VH: QVQLVQPGAEVKKPGSSVKVSCKASGGIFSPYAISWVRQAPGQGLEWMGGIIAIFGTTNYAQKFQGRVTITADKSTTTAYLELNSLRFEDTAVYYCARGGRYYVDYFDYWGQGTLVSVSS
VL: not shown
B3: FB75 (antibody, V domains shown)
VH: EVQLLESGGGLVHPGGSLRLSCAASGFTFSNYAMSWVRQAPGKGLEWVSSINSGGGATYYADSVKGRFTISRDNSKNTLSLQMNSLRAEDTAVYYCAKEGGNTIFGLVTMAYYFDSWGQGTLVTVSS
VL: QSALTQPASVSGSPGQSITISCTGTGSDVGSSNLVSWYQQHPAKAPKLIIYEVTKRPSGVSNRFSGSKSGNTASLTISGLQAEDEADYYCCSYAGSSSSRVFGTGTKVTVL
B4: FB110 (antibody, V domains shown)
VH: B3 VH
VL: B3 VL
B5: FB177 (antibody, V domains shown)
VH: B3 VH
VL: B3 VL
B6: FB54 (antibody, V domains shown)
VH: QVQLVQSGAEVKKPGSSLKVSCKASGVTFSMYTISWVRQAPGQGLEWMGGIIPLFGTANYEQKFQGRVTITADTSTNTAYMELSSLRSEDTAVYYCARAGTTLTRFNWFDPWGQGTLVTVSS
VL: not shown

Columns and labels:
Test in all cases: cell-based or functional assay
[1] = molecular target: T1, H5 HA A/VN/1194/04 (on pseudotypes) (influenza A virus A/VN/1194/04 (H5N1))
[2] = molecular target: T2, H5 HA A/VN/1203/04 (on pseudotypes and on infectious virus) (influenza A virus A/VN/1203/04 (H5N1))
[3] = molecular target: T3, H1 HA A/NC/20/99 (on infectious virus) (influenza A virus A/NC/20/99 (H1N1))
[4] = molecular target: T4, H1 HA A/SI/3/06 (on infectious virus) (influenza A virus A/SI/3/06 (H1N1))
[5] = molecular target: H9 HA A/ck/HK/G9/97 (on infectious virus) (influenza A virus A/ck/HK/G9/97 (H9N2))
[6] = molecular target: H3 HA A/WY/3/03 (on infectious virus) (influenza A virus A/WY/3/03 (H3N2))
[7] = molecular target: H5 HA A/HK/491/97 (on pseudotypes) (influenza A virus A/HK/491/97 (H5N1))
[8] = molecular target: H5 HA A/HK/213/03 (on pseudotypes) (influenza A virus A/HK/213/03 (H5N1))
[9] = molecular target: T1, H5 HA A/VN/1194/04 (on pseudotypes); remark: listed apart in the source
[10] = molecular target: T2, H5 HA A/VN/1203/04 (on pseudotypes and …); remark: listed apart in the source
[11] = molecular target: T5, H5 HA A/INDO/5/05 (on pseudotypes and on infectious virus) (influenza A virus A/INDO/5/05 (H5N1))
[12] = molecular target: H5 HA A/WS/Mong/244/05 (on pseudotypes) (influenza A virus A/WS/Mong/244/05 …)
[13] = molecular target: H5 HA A/Anhui/1/5 (on pseudotypes) (influenza A virus A/Anhui/1/5 (H5N1))
[14] = molecular target: T2, H5 HA A/VN/1203/04 (on pseudotypes and …); remark: listed apart in the source
[15] = molecular target: T3, H1 HA A/NC/20/99 (on infectious virus); remark: listed apart in the source
[16] = molecular target: T4, H1 HA A/SI/3/06 (on infectious virus); remark: listed apart in the source
[17] = molecular target: T6, H1 HA A/PR/8/34 (on infectious virus) (influenza A virus A/PR/8/34 (H1N1), UniProt P03452 18-565)
[18] = molecular target: T2, H5 HA A/VN/1203/04 (on pseudotypes and …); remark: listed apart in the source
[19] = molecular target: T6, H1 HA A/PR/8/34 (on infectious virus); remark: listed apart in the source
[20] = molecular target: T7, H1 HA A/swine/Iowa/31 (on infectious virus) (influenza A virus A/swine/Iowa/31 (H1N1))
[21] = molecular target: T8, H1 HA A/NJ/76 (on infectious virus) (influenza A virus A/NJ/76 (H1N1))
[22] = molecular target: T9, H1 HA A/CA/07/09 (on infectious virus) (influenza A virus A/CA/07/09 (H1N1))
[23] = molecular target: T2, H5 HA A/VN/1203/04 (on pseudotypes and …); remark: listed apart in the source
[24] = molecular target: T6, H1 HA A/PR/8/34 (on infectious virus); remark: listed apart in the source
[25] = molecular target: T7, H1 HA A/swine/Iowa/31 (on infectious …); remark: listed apart in the source
[26] = molecular target: T8, H1 HA A/NJ/76 (on infectious virus); remark: listed apart in the source
[27] = molecular target: T9, H1 HA A/CA/07/09 (on infectious virus); remark: listed apart in the source
[28] = molecular target: T5, H5 HA A/INDO/5/05 (on pseudotypes and …); remark: listed apart in the source
[29] = molecular target: H2 HA A/JP/305/57 (on infectious virus) (influenza A virus A/JP/305/57 (H2N2), UniProt P03451 16-562)

| Binder | Neutralization H5pp IC90 [1] | Neutralization H1N1 IC90 [3] | Neutralization H3N2 IC50 [6] | Neutralization of HA-pseudotypes (IC90) [7] | Neutralization of HA-pseudotypes (IC90) [8] | Neutralization of HA-pseudotypes (IC90) [9] | Neutralization of HA-pseudotypes (IC90) [10] | Neutralization of HA-pseudotypes (IC90) [11] | Neutralization of HA-pseudotypes (IC90) [12] | Neutralization of HA-pseudotypes (IC90) [13] | Neutralization of infectious viruses (IC50) [14] | Neutralization of infectious viruses (IC50) [15] | Neutralization of infectious viruses (IC50) [16] | Neutralization of infectious viruses (IC50) [17] | Neutralization of infectious viruses (IC50) [20] | Neutralization of infectious viruses (IC50) [21] | Neutralization of infectious viruses (IC50) [22] | Hemagglutination inhibition titer [25] | Hemagglutination inhibition titer [27] | Neutralization of infectious viruses (IC50) [28] | also measured |
| --- | --- | --- | --- | --- | --- | --- | --- | --- | --- | --- | --- | --- | --- | --- | --- | --- | --- | --- | --- | --- | --- |
| B1 | 0.3 µg/mL | 0.05 µg/mL | 16.6 µg/mL | 0.099 µg/mL | 0.367 µg/mL | 0.367 µg/mL | 0.525 µg/mL | > 50 µg/mL | 1.8 µg/mL | > 50 µg/mL | 6 µg/mL | 0.3 µg/mL | < 0.04 µg/mL | 2 µg/mL | 0.1 µg/mL | > 50 µg/mL | > 50 µg/mL | > 1280 | < 5 |  | Neutralization H5N1 IC50 [2]: 0.7 µg/mL; Neutralization H1N1 IC90 [4]: 0.2 µg/mL; Neutralization H9N2 IC50 [5]: 16.6 µg/mL; Neutralization of infectious viruses (IC50) [18]: 6 µg/mL; Neutralization of infectious viruses (IC50) [19]: 1 µg/mL; Hemagglutination inhibition titer [23]: > 1280; Hemagglutination inhibition titer [24]: > 1280; Hemagglutination inhibition titer [26]: < 5 |
| B2 |  | 6.2 µg/mL | > 50 µg/mL |  |  |  |  |  |  |  |  | 63 µg/mL |  |  | 0.5 µg/mL | 0.3 µg/mL | 0.2 µg/mL | 10 | 20 |  |  |
| B3 | 0.002 µg/mL | 3.1 µg/mL | > 50 µg/mL | 0.621 µg/mL | 0.013 µg/mL | 0.011 µg/mL | 0.02 µg/mL | 0.054 µg/mL | 0.026 µg/mL | 0.026 µg/mL | 63 µg/mL | 36 µg/mL | 8 µg/mL | 10 µg/mL |  |  |  |  |  | 16 µg/mL | Neutralization H5N1 IC50 [2]: > 50 µg/mL; Neutralization H1N1 IC90 [4]: 6.2 µg/mL; Neutralization H9N2 IC50 [5]: 5 µg/mL |
| B4 |  |  |  | 3.62 µg/mL | 0.013 µg/mL | 0.018 µg/mL | 0.017 µg/mL | 0.066 µg/mL | 0.06 µg/mL | 0.037 µg/mL | 36 µg/mL | 22 µg/mL | 5 µg/mL | 6 µg/mL | 1.2 µg/mL | 1.2 µg/mL | 0.4 µg/mL | 160 | 320 | 22 µg/mL | Neutralization of infectious viruses (IC50) [29]: 7 µg/mL; Neutralization of infectious viruses (IC50) [18]: > 50 µg/mL; Neutralization of infectious viruses (IC50) [19]: 0.4 µg/mL; Hemagglutination inhibition titer [23]: 80; Hemagglutination inhibition titer [26]: 160 |
| B5 |  |  |  | 1.31 µg/mL | 0.004 µg/mL | 0.002 µg/mL | 0.018 µg/mL | 0.552 µg/mL | 8.07 µg/mL | 0.039 µg/mL |  | 40 µg/mL | 13 µg/mL | 20 µg/mL |  |  |  |  |  | 18 µg/mL | Neutralization of infectious viruses (IC50) [29]: 63 µg/mL |
| B6 |  | 25 µg/mL |  |  |  |  |  |  |  |  |  | 50 µg/mL |  |  |  |  |  |  |  |  |  |

Where two headings read alike, the source gives them in different places.
